# Literature values as cited in publication PMC8025584, “Identification of multipotent drugs for COVID-19 therapeutics with the evaluation of their SARS-CoV2 inhibitory activity” (Computational and Structural Biotechnology Journal, 2021).
# Test system: differentially expressed human proteins in COVID-19
# Conditions: gene FCER1G; ref DGIdb; cited from earlier work
sequence,measurement,value
BENZYLPENICILLOYL POLYLYSINE,interaction_types,agonist
